PubChem BioAssay AID624099, ICCB-Longwood – 2012

- Assay: 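Human genes that papillomavirus E2 requires to repress the HPV18 LCR promoter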 (primary screen)
- Cells: human C33A cervical carcinoma cells (HPV-negative) stably expressing BPV1 E2 and an HPV18 LCR luciferase reporter
- Reagents: siRNA pool against human genes, 40 nM
- Time to read-out: 72 h
- Measurement: 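HPV18 LCR reporter light per well, converted to plate-wise z-scores that exclude control wells, and averaged over triplicate plates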
- Scale: mean z-score and z-score: higher = stronger reporter signal, weaker E2 silencing
- Active means: 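Hit if mean z-score reaches 2 and two or more of three replicate z-scores also reach 2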
The deposit covers about 21,000 reagents; below is an unselected part. 497 of all reagents (2.4%) count as active. 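Higher z means weaker E2 silencing; only reporter increases were scored, and knock-downs that hurt cell survival may mask genuine repressor factors.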 Reagents against one gene are numbered here.

| mean z-score | z-score, replicate A | z-score, replicate B | z-score, replicate C | Outcome | gene knocked down | reagent |
| --- | --- | --- | --- | --- | --- | --- |
| -0.71 | -0.79 | -0.69 | -0.66 | inactive | GAS7 (GeneID 8522) | 1 |
| 1.09 | 0.67 | 1.21 | 1.38 | inactive | HSF5 (GeneID 124535) | 1 |
| -0.05 | -0.53 | -0.38 | 0.77 | inactive | CALM1 (GeneID 801) | 1 |
| -0.02 | -0.21 | 0.32 | -0.16 | inactive | H2AC17 (GeneID 8336) | 1 |
| -0.86 | -0.95 | -0.86 | -0.77 | inactive | ZNF85 (GeneID 7639) | 1 |
| -0.05 | -0.28 | 0.1 | 0.04 | inactive | SNAI2 (GeneID 6591) | 1 |
| 0.69 | 0.75 | 0.96 | 0.35 | inactive | MGARP (GeneID 84709) | 1 |
| -1.7 | -1.41 | -1.61 | -2.08 | inactive | H4C16 (GeneID 121504) | 1 |
| -1.78 | -1.81 | -1.85 | -1.69 | inactive | TNFRSF9 (GeneID 3604) | 1 |
| 0.83 | 0.84 | 0.86 | 0.77 | inactive | MYF5 (GeneID 4617) | 1 |
| 1.68 | 1.72 | 1.76 | 1.56 | inactive | DOC2B (GeneID 8447) | 1 |
| -0.36 | -0.63 | -0.43 | -0.02 | inactive | RNF13 (GeneID 11342) | 1 |
| 0.18 | 0.06 | 0.12 | 0.36 | inactive | PSTPIP1 (GeneID 9051) | 1 |

7 entries already listed, sorted by “z-score, replicate B”, lowest first.
| mean z-score | z-score, replicate A | z-score, replicate B | z-score, replicate C | Outcome | gene knocked down | reagent |
| --- | --- | --- | --- | --- | --- | --- |
| -1.78 | -1.81 | -1.85 | -1.69 | inactive | TNFRSF9 (GeneID 3604) | 1 |
| -1.7 | -1.41 | -1.61 | -2.08 | inactive | H4C16 (GeneID 121504) | 1 |
| -0.36 | -0.63 | -0.43 | -0.02 | inactive | RNF13 (GeneID 11342) | 1 |
| 0.18 | 0.06 | 0.12 | 0.36 | inactive | PSTPIP1 (GeneID 9051) | 1 |
| 0.83 | 0.84 | 0.86 | 0.77 | inactive | MYF5 (GeneID 4617) | 1 |
| 0.69 | 0.75 | 0.96 | 0.35 | inactive | MGARP (GeneID 84709) | 1 |
| 1.68 | 1.72 | 1.76 | 1.56 | inactive | DOC2B (GeneID 8447) | 1 |

Further reagents follow.
| mean z-score | z-score, replicate A | z-score, replicate B | z-score, replicate C | Outcome | gene knocked down | reagent |
| --- | --- | --- | --- | --- | --- | --- |
| -1.3 | -1.51 | -1.35 | -1.05 | inactive | NAV2-AS4 (GeneID 399876) | 1 |
| 1.15 | 1.23 | 1.33 | 0.9 | inactive | ADCY2 (GeneID 108) | 1 |
| 0.61 | 0.39 | 0.48 | 0.96 | inactive | SH3RF1 (GeneID 57630) | 1 |
| -0.76 | -0.48 | -0.89 | -0.9 | inactive | LOC389782 (retired record) (GeneID 389782) | 1 |
| -0.47 | -0.42 | -0.66 | -0.33 | inactive | MUCL1 (GeneID 118430) | 1 |
| -1.04 | -1.17 | -1.08 | -0.88 | inactive | RAB6C (GeneID 84084) | 1 |
| -0.57 | -0.45 | -0.69 | -0.58 | inactive | EVPL (GeneID 2125) | 1 |
| 0.19 | 0 | 0.33 | 0.25 | inactive | LINC02138 (GeneID 400558) | 1 |
| -0.18 | -0.29 | -0.27 | 0.02 | inactive | GOLGA8G (GeneID 283768) | 1 |
| -0.72 | -0.66 | -0.74 | -0.74 | inactive | GOLGA8G (GeneID 283768) | 2 |
| -1.21 | -1.19 | -1.33 | -1.11 | inactive | LOC285777 (retired record) (GeneID 285777) | 1 |
| 0.42 | 0.49 | 0.21 | 0.56 | inactive | STOM (GeneID 2040) | 1 |
| -1.21 | -1.24 | -1.23 | -1.16 | inactive | NICN1 (GeneID 84276) | 1 |
| -0.09 | -0.24 | -0.19 | 0.16 | inactive | LOC388689 (retired record) (GeneID 388689) | 1 |
| -0.31 | -0.55 | -0.17 | -0.21 | inactive | ERICH3 (GeneID 127254) | 1 |
| 0.34 | 0.33 | 0.45 | 0.23 | inactive | FAAP100 (GeneID 80233) | 1 |
| 0.75 | 1.29 | 0.69 | 0.28 | inactive | RABGGTB (GeneID 5876) | 1 |
| -0.62 | -0.54 | -0.54 | -0.76 | inactive | CUL5 (GeneID 8065) | 1 |
| -0.12 | -0.08 | 0.05 | -0.33 | inactive | LINC00336 (GeneID 401253) | 1 |
| -0.38 | -0.4 | -0.41 | -0.34 | inactive | DRD4 (GeneID 1815) | 1 |
| 0 | 0.01 | 0.24 | -0.26 | inactive | LOC285031 (retired record) (GeneID 285031) | 1 |
| 2.23 | 2.01 | 2.25 | 2.41 | active | GPKOW (GeneID 27238) | 1 |
| 0.09 | 0.55 | -0.09 | -0.2 | inactive | BTBD2 (GeneID 55643) | 1 |
| 0.43 | 0.08 | 0.63 | 0.59 | inactive | TRMT1 (GeneID 55621) | 1 |
| 0.41 | 0.59 | 0.5 | 0.15 | inactive | CYP4F2 (GeneID 8529) | 1 |
| -1.16 | -0.87 | -1.36 | -1.25 | inactive | DTYMK (GeneID 1841) | 1 |
